For at least one entry, the source does not settle the construct or the ends of the probe. At least one verdict rests on a figure or table, not on a statement of the authors.
Legend:
[1] = biological target: WhiB6 (apo, oxidized (S)2) (Mycobacterium tuberculosis) (UniProt P9WF37); assay: far-UV CD; settings: no MgCl2
[2] = biological target: WhiB6 (apo, oxidized (S)2) (Mycobacterium tuberculosis) (UniProt P9WF37); assay: SERS

Chains of the proteins cited; added tags and fusions are not shown. Lines headed by an entry give the natural chain unless they say otherwise; changes in a name come on top.
UniProt P9WF37: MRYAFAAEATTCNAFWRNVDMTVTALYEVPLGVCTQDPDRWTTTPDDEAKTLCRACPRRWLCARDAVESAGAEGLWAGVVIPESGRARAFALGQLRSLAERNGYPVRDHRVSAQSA

TGCCGTCTTCACGAACTCAAAACTGACGATCTGCTTAGCATGAAAAAAACTGTTGACATCGGCCAAGCATGACAGCCAGACTGTAGGCCC (double strand) [espA promoter DNA, 90 bp]
binding result [1]: binds | binding result [2]: binds
